A mixed list of measured activities; the numbers were collected in NIAID ChemDB.

All rows: whole-cell or culture tests; organism: Mycobacterium tuberculosis

a–b is a range or a potency band. Inhibition is in % at the dose shown (toxicity tests: loss of growth or viability). MIC bound comes from a single tested concentration. An empty or dashed field is not shown. ECn: concentration that inhibits the pathogen or its effect by n%. MIC50, MIC90 and the like: level of inhibition, or share of isolates inhibited. Lines come from different laboratories, so protocols vary.

| compound | method | cells | strain or isolate | endpoint | tested at | result |
|---|---|---|---|---|---|---|
| C=C1C(=O)OC2[C@H]3O[C@]3(C)CC/C=C(/C)[C@H](O)C[C@@H]12 | BACTEC |  | H37Rv | inhibition | 12.5 µg/mL | 12% |
| CCOC(=O)CCC1=NNC(=O)CC1 |  |  | H37Rv | MIC |  | 500 µg/mL |
| O=C(N/N=C/c1ccc([N+](=O)[O-])s1)c1ccccc1 |  |  | H37Rv | EC50 |  | <6.25 µg/mL |
| Brc1ccc(CSc2nc3ccccc3[nH]2)cc1 |  |  | My 331/88 | MIC |  | >32 µM |
| CCOC(=O)c1nc2cc(F)c(N3CCOCC3)cc2[nH]c1=O | resazurin |  | H37Rv | MIC bound |  | >6.25 µg/mL |
| CC1COc2c(N3CCN(C)CC3)c(F)cc3c(=O)c(C(=O)O)cn1c23 |  |  |  | MBC |  | 1–2 µg/mL |
| CCOc1cc(/C=N/NC(=O)c2ccc(F)cc2)ccc1O |  |  | H37Rv | inhibition | 6.25 µg/mL | 7% |
| CCCCCCCCN1C(=O)C(C)SC12CCCCC2 | resazurin |  | H37Ra | inhibition | 25 µg/mL | 87% |
| CCC1=NOC2(CCN(C(=O)CCC(F)(F)F)CC2)C1 | fluorescence | THP-1 | H37Rv | EC50 |  | <0.1 µM |
| O=C(N[C@@H]1COc2nc([N+](=O)[O-])cn2C1)Oc1ccc(OC(F)(F)F)cc1 | resazurin |  | H37Rv | MIC |  | >64 µM |
| OC(c1cc(-c2ccccc2)nc2c(Cl)cc(Cl)cc12)C1CCCCN1 | BACTEC |  | H37Rv | MIC |  | 2 µg/mL |
| O=C(NN1C(=O)CSC1c1ccc(F)cc1)c1cc(-c2cc(F)cc(F)c2)ccc1O | BACTEC |  | H37Rv | inhibition | 6.25 µg/mL | <90% |
| CC1=NOC2(CCN(C(=O)CCC(F)(F)F)CC2)C1 | fluorescence | THP-1 | H37Rv | EC50 |  | <0.5 µM |
| O=C(O)CC1C(=O)OC2C(COC(=O)c3cc(O)c(O)c(O)c3)OC(OC(=O)c3cc(O)c(O)c(O)c3)C(OC(=O)c3cc(O)c(O)c4c3C1C(O)C(=O)O4)C2OC(=O)c1cc(O)c(O)c(O)c1 | BACTEC |  | H37Rv | MIC bound |  | >12.5 µg/mL |
| CC(C)=NNC(=O)CCCCC(=O)O |  |  | H37Rv | MIC |  | 500 µg/mL |
| CN(Cc1ccccc1)C(=S)S | BACTEC |  | H37Rv | MIC |  | ≥12.5 µg/mL |
| Cc1ccc(C2SC=C3SC(N4C(=O)C(Cl)C4c4ccc(C)cc4)=NN32)cc1 | resazurin |  | H37Rv | MIC |  | 0.8 µg/mL |
| O=C(Nc1ccccc1)NC1C[C@@H]2CN(c3ccc(N4C[C@H](Cn5ccnn5)OC4=O)cc3F)C[C@@H]2C1 | broth dilution / resazurin |  | H37Rv | MIC |  | 4 µg/mL |
| COC(=O)C1(C)CC2C(C)(CCC3(C)C4=CC=C5C(=CC(=O)C(O)=C5C)C4(C)CCC23C)CC1O | BACTEC |  | H37Rv | inhibition | 12.5 µg/mL | 93% |
| CC(=O)n1cc(/C=N\NC(=O)c2ccncc2)c2ccccc21 |  |  | H37Rv | inhibition | 6.25 µg/mL | 98% |
| CC[n+]1cnc(N)c2c(-c3ccc(Cl)cc3)cn(-c3ccc(C)cc3)c21.[I-] | BACTEC |  | H37Rv | MIC bound |  | >12.5 µg/mL |
| CCOC(=O)c1cc(-c2ccc(Cl)cc2)n(CCC(=O)N/N=C/c2ccc(OC)cc2)c1C |  |  | H37Rv | inhibition | 6.25 µg/mL | 92% |
| CCCCCCCCN1C(=S)CSC12CCCCC2 | resazurin |  | H37Ra | inhibition | 25 µg/mL | 7% |
| COc1ccc2cc([N+](=O)[O-])c3ccc(=O)oc3c2c1 | resazurin |  | H37RvIr | MIC |  | 50 µg/mL |
| CCOC(=O)CCCCC/C=N/NC(N)=S |  |  | H37Rv | MIC |  | 50–100 µg/mL |
| O=C(N/N=C/c1ccc([N+](=O)[O-])o1)N1CCCCC1 |  |  |  | MIC |  | 100 µg/mL |
| CCCCCCCCCCCCN1C(=O)C(CC(=O)O)SC12CCN(C(=O)C(N)CCCCN)CC2 | resazurin |  | H37Ra | EC50 |  | <25 µg/mL |
| C=C(C)[C@H]1CN[C@H](C(=O)O)[C@H]1CC(=O)O | BACTEC |  | H37Rv | inhibition | 12.8 µg/mL | 0% |
| O=C1C(Cl)C(c2ccc(O)cc2)N1C1=NN2C(=CSC2c2ccc(O)cc2)S1 | resazurin |  | H37Rv | MIC |  | 1.6 µg/mL |
| O=C(NNC(=S)Nc1ccccc1)c1cc(-c2cc(F)cc(F)c2)ccc1O | BACTEC |  | H37Rv | inhibition | 6.25 µg/mL | <90% |
| COc1ccc(C2C(Cl)C(=O)N2C2=NN3C(=CSC3c3ccc(N(C)C)cc3)S2)cc1 | resazurin |  | H37Rv | MIC |  | 3.125 µg/mL |
| COc1ccc2ccc3cccnc3c2n1 | BACTEC |  | H37Rv | MIC bound |  | >12.5 µg/mL |
| O=C(N/N=C/c1cccs1)c1ccc(Br)cc1 |  |  | H37Rv | MIC |  | >6.25 µg/mL |
| N#Cc1ccc(CSc2nc3ccccc3[nH]2)cc1 |  |  | My 331/88 | MIC |  | 32 µM |
| O=C(N/N=C/c1cccc(Cl)c1)c1ccc(F)cc1 |  |  | H37Rv | inhibition | 6.25 µg/mL | 57% |
| COCCN(C1CCN(CC2C(c3ccccc3)=Nc3c(C)cc(C)cc32)C1)S(C)(=O)=O |  |  |  | MIC |  | 100 µM |
| O=[N+]([O-])c1cccc(F)c1CSc1nc2ccccc2[nH]1 |  |  | My 331/88 | MIC |  | 125 µM |
| CCCCCCCCCCCCN1C(=O)C(CC(=O)O)SC12CCCCCCC2 | resazurin |  | H37Ra | EC50 |  | <25 µg/mL |
| CNn1cc(C(=O)O)c(=O)c2cc(F)c(N3CCN(C)CC3)cc21 |  |  | 22 isolates | MIC90 |  | 4 µg/mL |
| CO[C@H]1/C=C/O[C@@]2(C)Oc3c(C)c(O)c4c(O)c(c(/C=N/N5CCN(C)CC5)c(O)c4c3C2=O)NC(=O)/C(C)=C\C=C\[C@H](C)[C@H](O)[C@@H](C)[C@@H](O)[C@@H](C)[C@H](OC(C)=O)[C@@H]1C |  |  | H37Rv | MIC |  | 0.01 µM |
| COc1ccccc1/C=N\C1=NN2C(=CSC2c2ccc(N(C)C)cc2)S1 | resazurin |  | H37Rv | MIC |  | 6.25 µg/mL |
| Cc1cccc(C)c1-n1cc(NC(=S)NC(=O)c2ccccc2)n(C(=O)c2ccccc2)c1=S | BACTEC |  | H37Rv | inhibition | 12.5 µg/mL | 67% |
| CN[C@@H]1[C@H](O[C@H]2[C@H](O[C@H]3[C@H](O)[C@@H](O)[C@H](N=C(N)N)[C@@H](O)[C@@H]3N=C(N)N)O[C@@H](C)[C@]2(O)C=O)O[C@@H](CO)[C@H](O)[C@H]1O | resazurin |  | H37Rv | MIC |  | 6.25 µg/mL |
| C1Cn2nnnc2N1 | BACTEC |  | H37Rv | MIC bound |  | >12.5 µg/mL |
| O=C(N/N=C/c1cccs1)c1ccc(F)cc1 |  |  | H37Rv | EC50 |  | >6.25 µg/mL |
| Cc1cccc(CSc2nc3ccccc3[nH]2)c1 |  |  | My 331/88 | MIC |  | >125 µM |
| CC(=O)Nc1ccc(/C=N/NC(N)=S)cc1 |  |  | Frankfurt | MIC |  | 0.1 µg/mL |
| CN(C)C(=S)N/N=C/c1ccc([N+](=O)[O-])o1 |  |  |  | MIC |  | 40 µg/mL |
| O=C(Nc1cncc(Cl)n1)c1ccccc1O | resazurin |  | H37Rv | MIC |  | >100 µg/mL |
| COc1cc2c(=O)n(C)c3ccccc3c2cc1OC | BACTEC |  | H37Rv | MIC bound |  | >12.5 µg/mL |
| NC(=O)NN=C(CCC(=O)O)CCC(=O)O |  |  | H37Rv | MIC |  | 100 µg/mL |
| O=C(CCC(F)(F)F)N1CCC2(CC1)CC(OCC(F)(F)F)=NO2 | fluorescence | THP-1 | H37Rv | EC50 |  | <0.5 µM |
| CCCCCCCCCCCCN1C(=O)C(CC(=O)O)SC12CCCCC2 | resazurin |  | H37Ra | inhibition | 25 µg/mL | 97% |
| CC(=O)NC(CCC(NC(C)=O)C(=O)NN)C(=O)NN |  |  | H37Rv | MIC |  | 200 µg/mL |
| O=C(N/N=C/c1c(O)cccc1O)c1cccnc1.[Cl][V][Cl] | broth dilution / resazurin |  | H37Rv | MIC |  | 0.62 µg/mL |
| CO[C@H]1/C=C/O[C@@]2(C)Oc3c(C)c(O)c4c(O)c(c5c(c4c3C2=O)NC2(CCN(CC(C)C)CC2)N=5)=NC(=O)/C(C)=C\C=C\[C@H](C)[C@H](O)[C@@H](C)[C@@H](O)[C@@H](C)[C@H](OC(C)=O)[C@@H]1C |  |  |  | MIC90 |  | 1.56–10 µg/mL |
| CCOC(=O)C(NC(=O)C(CO)n1c(-c2ccccc2)c(-c2ccccc2)oc1=O)C(=O)OCC | BACTEC |  | H37Rv | inhibition | 12.5 µg/mL | 0% |
| COCCN(C1CCN(CC2C(c3ccccc3)=Nc3c(OC)cccc32)C1)S(C)(=O)=O |  |  |  | MIC |  | 6.25 µM |
| Nc1nnc2nc(CC(=O)/C=C/c3ccccc3)c(=O)[nH]n12 | BACTEC |  | H37Rv | inhibition | 12.5 µg/mL | 14% |
| CC(=O)NC[C@H]1CN(c2ccc(N3C[C@H]4CC(N)C[C@H]4C3)c(F)c2)C(=O)O1 | broth dilution / resazurin |  | H37Rv | MIC |  | 2 µg/mL |
| CCOC(=O)C/C(C)=N/NC(=O)CCn1c(-c2ccc(Cl)cc2)cc(C(=O)OCC)c1C |  |  | H37Rv | MIC |  | >6.25 µg/mL |
| Cc1ccc(C2SC=C3SC(/N=C\c4ccccc4C)=NN32)cc1 | resazurin |  | H37Rv | MIC |  | 6.25 µg/mL |
| Cc1ccc(N2C(=O)CSC2=S)cc1F | BACTEC |  | H37Rv | inhibition | 12.5 µg/mL | 81% |
| C[C@@H]1CN(c2c(F)c(N)c3c(=O)c(C(=O)O)cn(C4CC4)c3c2F)C[C@H](C)N1 |  |  |  | MIC90 |  | 0.5 µg/mL |
| O=C(O)CC1CCC(=O)N1 |  |  | H37Rv | MIC |  | >100 µg/mL |
| O=C1O[C@@H](Cn2ccnn2)CN1c1ccc(N2C[C@H]3CC(n4ccnn4)C[C@H]3C2)c(F)c1 | broth dilution / resazurin |  | H37Rv | MIC |  | 2 µg/mL |
| c1ccc(Nc2nc(N/N=C3\CN4CCC3CC4)nc(N3CCCCC3)n2)cc1 | MTT |  | H37Rv | MIC |  | 0.1 µg/mL |
| Cc1cc(Cc2cc(C)c(NC(=O)C(=O)C3CCC4=C(SC5C=CC=CC5N4)C3=O)c(C(C)C)c2)cc(C(C)C)c1NC(=O)C(=O)C1CCC2=C(SC3C=CC=CC3N2)C1=O | BACTEC |  | H37Rv | inhibition | 12.5 µg/mL | 36% |
| CCCOC1=NOC2(CCN(C(=O)CCC(F)(F)F)CC2)C1 | fluorescence | THP-1 | H37Rv | EC50 |  | <0.5 µM |
| NC(=S)NC1C[C@@H]2CN(c3ccc(N4C[C@H](Cn5ccnn5)OC4=O)cc3F)C[C@@H]2C1 | broth dilution / resazurin |  | H37Rv | MIC |  | 0.5 µg/mL |
| NC(=O)CCC1=NNC(=O)CC1 |  |  | H37Rv | MIC |  | 500 µg/mL |
| CCNC(=S)NNC(=O)c1cc(-c2cc(F)cc(F)c2)ccc1O | BACTEC |  | H37Rv | inhibition | 6.25 µg/mL | 25% |
| O=C1C(N=Nc2ccc(Cl)cc2)Sc2nc3ccccc3n21 | BACTEC |  | H37Rv | MIC bound |  | >12.5 µg/mL |
| NC(CCC(N)C(=O)O)C(=O)O |  |  | H37Rv | MIC |  | >1000 µg/mL |
| COc1ccc(-c2c(N)cnc(C(=O)O)c2C)c(O)c1OC | BACTEC |  | H37Rv | inhibition | 12.5 µg/mL | 0% |
| COc1ccc(CN2CCN(S(=O)(=O)c3ccc(-n4cccn4)cc3)CC2)cc1 |  |  |  | MIC |  | >200 µM |
| COc1cc2c3c(c1OC)-c1cc4c(cc1CC3N(C=O)CC2)OCO4 | resazurin |  | MMDO | MIC |  | >50 µg/mL |
| NNC(=O)C1C2c3ccccc3C(c3ccccc32)C1C(=O)NN | BACTEC |  | H37Rv | MIC bound |  | >12.5 µg/mL |
| CN(C)c1ccc(/C=C/C/C=N/NC(=O)c2ccc(F)cc2)cc1 |  |  | H37Rv | MIC |  | >6.25 µg/mL |
| O=C(NNC(=S)NC1CCCCC1)c1cc(-c2cc(F)cc(F)c2)ccc1O | BACTEC |  | H37Rv | inhibition | 6.25 µg/mL | <90% |
| Clc1ccc(CSc2nc3ccccc3[nH]2)cc1 |  |  | My 331/88 | MIC |  | >125 µM |
| O=C(N/N=C/c1ccc([N+](=O)[O-])o1)N1CCOCC1 |  |  |  | MIC |  | 10 µg/mL |
| O=S(=O)(NC1CCN(Cc2ccncc2)CC1)c1ccc(-c2cocn2)cc1 |  |  |  | MIC |  | 6.25 µM |
| O=Cc1cn(CCCCCCCCCCCCn2cc(C=O)c3ccccc32)c2ccccc12 | BACTEC |  | H37Rv | inhibition | 12.5 µg/mL | 4% |
| CCOC(=O)c1c(C)[nH]c(/C=N\NC(=O)c2ccncc2)c1C |  |  | H37Rv | inhibition | 6.25 µg/mL | 98% |